Experimental data: the supplement of paper PMC9931576
Human monoclonal antibodies against the spike receptor-binding domain (heavy:light variable regions). IC50 against pseudoviruses bearing the spike of naturally observed variants; lower = stronger; >10 µg/ml means not reached at the top dose. No active / inactive call. The stated detection limit is 0.0005 µg/ml; values near or below 0.001 µg/ml lie at the floor of the assay.

B1: BD56-1323 (protein)
chain 1: QVQLVQSGAEVKKPGASVKLSCKASGYIFTNYYLHWVRQGPGQGPEWMGIINPSGGSRRYAQKFQGRVTMNRDTSTSTVYMELSSLRSEDTAVYYCAREVVVPAAGYMDVWGKGTTVTVSS
chain 2: SYVLTQPPSVTVAPGKTATLTCEGDNIGSKSVHWYQQKPGQAPVLVVYDDSDRPSGIPERFSGSNSGNTATLTISWVEAGDEADYFCQVWESTSDHFYVFGTGTKVTVL
B2: BD56-1344 (protein)
chain 1: QLQLQESGPGLVKPSETLSLTCSVSGGSISSSDYYWGWIRQPPGKGLEWIGNIFYSGTTYYNPSLKSRVTISVDTSENHFSLRLTSVTAADTAFYYCARFLRMATVLGGAYYFDYWGQGTLVTVSS
chain 2: QSALTQPPSASGSPGQSVTISCTGTSSDVGSYNYVSWYQQYPGKAPKLMIYEVTKRPSGVPDRISGSKSGNTASLTVSGLQAEDEADYYCSSYVGSNTLFGGGTKLTVL
B3: BD56-1392 (protein)
chain 1: QVQLVQSGAEVKKPGASVKVSCKASGYTFSDYYMHWVRQAPGQGLEWMGIINPTAGSTSYAQKFQGRVTMTTDTSTSTAYLELNSLRSEDTAIYYCARDLVLVPAADSLDHWGQGTLVTVSS
chain 2: EIVLTQSPATLSLSPGERATLSCRASQSISTYLAWYQQKPGQAPRLLIYDASNRATGIPARFSGSGSGTDFTLTISSLEPEDFALYYCQQRSGWPRLFTFGPGTKVDMK
B4: BD56-1390 (protein)
chain 1: EVQLVESGGGLIQPGGSLRLSCEASEFIVSSNYMSWVRQAPGKGLEWVSIIYSGGTTYYADSVKGRFTISRDNAKNTLYLQMSSLRVEDTALYYCARVLPMGTFDYWGQGTLVTVSS
chain 2: DIQMTQSPSSLSASVGDRVTITCQASQDVNIYLNWYQQKPGKAPKLLISDASNLETGVPSRFSGSGSGTGFTFTISSLQPEDIATYYCQQYDNVPLTFGGGTKVEIK
B5: BD56-1326 (protein)
chain 1: EVQVVESGGGLVKPGGSLRLSCAASGFNFGSYNMNWLRQAPGKGLEWVSSIGTSSSYRYYADSIKGRFTISRDNAKNSLYLQMNSLRAEDTAVYYCARDSEWGGDILTGSSHIFDYWGQGTVVTVSS
chain 2: DIQMTQSPSSLSVSVGDRVTITCRASQTISSSLNWYHQKPGKAPKLLIYGAISLQSGVPSRFSGSGSGTDFTLTISSLQLEDFATYYCQQSYSSPPTFGGGTKVEIK
B6: BD56-1331 (protein)
chain 1: EVQLLESGGGLVQPGGSLRLSCGASGFAFGSYAMSWVRQAPEKGLEWVSAINDSGDGKFYADSVKGRFTISRDNSKNTLYLQMNSLRAEDTAVYYCAKHEDFGDYVDYFDPWGQGTLITVSS
chain 2: DIQMTQSPSSLSASVGDRVTITCRASQSIGRYLSWYQQKAGKAPNLLIYGAASLQIGVPSRFSGSGSGTDFTLTITSLQPEDFATYYCQQSYGTPPWTFGQGTKVEIK
B7: BD56-1306 (protein)
chain 1: EVQLVESGGGLVQPGRSLRLSCAASGFTFDDYAMQWVRLAPGKGLEWISGISWNSGGIAYADSVKGRFTVSRDNAKNSLYLQMNSLRPDDTALYYCAKIGSRSAFVRGYLDLWGRGTLVTVSS
chain 2: EIVMTQSPATLSVSPGERATLSCRASQSVSSNLAWYQQKPGQAPRLLIYGASTRATGIPARFSGSGSGTEFTLTISSLQSEDFAVYYCQHYNNWPPEITFGPGTKVDIK
B8: BD56-1334 (protein)
chain 1: QVQLVQSGAEVKKPGASVKLSCKTSGYTFTTYHIHWVRQAPGQGLEWMGIINPSGGSRRYAQKFQGRVSMTGDTSASTVYMELSSLRSEDTAIYYCARELVVPAAGYMDVWGKGTTLTVSS
chain 2: SYVLTQPPSVSVAPGKTARVTCGGNNIGSTSVHWYQQKPGQAPVLVVYDDSDRPSGIPERFSGSNSGNTATLTISRVEAGDEADYYCQVFDGSSDHFYVFGSGTKVTVL
B9: BD56-1335 (protein)
chain 1: QVQLVQSGAEVKKPGASVKVSCKASGYTFTSYYIHWVRQAPGQGLEWMGMINPSGGTTRSAQQFQGRVTMTRDTSTSTVYMELSSLRSDDTAVYFCAREVVVPAAGYMDVWGKGTTVTVSS
chain 2: SYVLTQPPSVSVAPGKTARITCGGDNIGSKSVHWYQQRPGQAPVLVVYHDSDRPSGIPERFSGSNSGNTATLTISGVEAGDEADYYCQVWDSISGHFYVFGTGTTVTVL
B10: BD56-1307 (protein)
chain 1: EVQLVESGGGLVRPGGSLRLSCAASGFTFSSFSMNWVRQAPGKGLEWVSSISSGGGHIYYADSVKGRFTISRDNAKNSLYLQMNSLRAEDTAVFYCARDSEWGGDILTGFSHIFDYWGRGTLVTVSS
chain 2: DIQMTQSPSSLSASVGDRVTITCRASQIISSSLNWYQQKPGEAPKLLIYAFSLHSGVPSRFSGSGSGTDFTLTISSLQPEDFATYYCQQSYSTPPTFGGGTKVEIK
B11: BD56-1304 (protein)
chain 1: QITLKESGPTLVKPTQTLTLTCTFSGFSLSTSGVGVGWIRQPPGKALEWLALIYWDDDRRYSPSLKSRLTITKDTSKNQVVLTMTNMDPVDTGTYYCAHNADNSASGSYRDENWFDPWGQGTLVTVSS
chain 2: SYELTQPPSVSVSPGQTARITCFGDAWPNQYAYWYQQKPGQAPVLVIYKDSERPSGIPERFSGSSSGTTVTLTISGVQAEDEADYFCQSADSSGVVFGGGTKLTVL
B12: BD56-1354 (protein)
chain 1: EVQLVESGGGLVQPGGSLRLSCAASGIIVSRNYMSWVRQAPGKGLEWVSVIYSGGSTYYADSVKGRFIISRDNSKNTLNLQMNSLRAEDTAVYYCARDSRINGMDVWGQGTTVTVSS
chain 2: DIQMTQSPSSLSASVGDRVTITCQASQDINNYLNWFQQKPGKAPKLLIYDASSLETGVPSRFSGSGSGTDFTFTISSLQPEDIATYYCQQYDNLPPWTFGQGTKVEIK

Key:
Test in all cases: pseudovirus neutralization IC50; higher = weaker neutralization
[1] = target: SARS-CoV-2 Omicron BA.1 spike pseudovirus
Description: (§1)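 Single-round VSV luciferase pseudovirus mixed with antibody dilutions for 1 h and put on Huh-7 cells for about a day; IC50 from the dose curve.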

[2] = target: SARS-CoV-2 Omicron BA.2 spike pseudovirus
Description: as §1

[3] = target: SARS-CoV-2 Omicron BA.2.75 spike pseudovirus
Description: as §1

[4] = target: SARS-CoV-2 Omicron BA.5 spike pseudovirus
Description: as §1

[5] = target: SARS-CoV-2 Omicron BQ.1.1 spike pseudovirus
Description: as §1

[6] = target: SARS-CoV-2 Omicron XBB spike pseudovirus
Description: as §1

[7] = target: SARS-CoV-2 early D614G spike pseudovirus
Description: as §1

Binder	pseudovirus neutralization IC50 [1] [µg/mL]	pseudovirus neutralization IC50 [2] [µg/mL]	pseudovirus neutralization IC50 [3] [µg/mL]	pseudovirus neutralization IC50 [4] [µg/mL]	pseudovirus neutralization IC50 [5] [µg/mL]	pseudovirus neutralization IC50 [6] [µg/mL]	pseudovirus neutralization IC50 [7] [µg/mL]
B1	> 10	> 10	> 10	> 10	> 10	> 10	1.16
B2	> 10	> 10	> 10	> 10	> 10	> 10	> 10
B3	> 10	> 10	> 10	> 10	> 10	> 10	> 10
B4	0.00245	0.00168	1.39	0.0891	> 10	> 10	1.31
B5	> 10	> 10	> 10	> 10	> 10	> 10	> 10
B6	> 10	1.14	1.96	1.44	1.96	0.82	1.75
B7	1.49	1.72	> 10	3.65	5.61	> 10	> 10
B8	> 10	> 10	> 10	> 10	> 10	> 10	> 10
B9	> 10	> 10	> 10	> 10	> 10	> 10	> 10
B10	> 10	> 10	> 10	> 10	> 10	> 10	> 10
B11	> 10	> 10	> 10	> 10	> 10	> 10	1.72
B12	0.00565	0.000691	0.0513	0.00202	0.452	0.628	6.96
